# Tested on: L. monocytogenes Scott A
# Assay: Minimal inhibitory concentration (MIC) and minimal bactericidal concentration (MBC), 96-well plate broth assay
# Assay type: cell-based, Listeria monocytogenes
# Details: in terms of MIC, versus compound 2
row,SMILES,Change of antimicrobial activity (MIC) compared with the parent compound 2
1,Oc1ccc(/C=C/c2cc(O)cc3occ(-c4cc(O)cc(O)c4)c23)cc1 [Compound 7],two-fold higher potency
2,Oc1ccc(-c2oc3cc(O)ccc3c2-c2cc(O)cc(O)c2)cc1 [Compound 6],four-fold lower activity
3,Oc1ccc(/C=C/c2cc(O)cc3occ(-c4cc(O)cc(O)c4)c23)cc1 [Compound 8],four-fold lower activity

# Source: article PMC7139904, “Structural Requirements of Benzofuran Derivatives Dehydro-δ- and Dehydro-ε-Viniferin for Antimicrobial Activity Against the Foodborne Pathogen Listeria monocytogenes” (International Journal of Molecular Sciences, 2020)
